Assay results published in patent US9814918B2, “Microbial deactivation of explosive compositions” (dated 2017).

Key:
[1] = system: Gibberella moniliformis CD611; assay: Induction of nitroglycerin-degrading activity in Gibberella moniliformis CD611; details: 29 h in Luria Broth, 0.5 mM GTN, PETN, 1 mM DMFU, 4 mM DEME, 1 mM TPBO, TBHQ, DMME; for nitroglycerin-degrading activity of cell-free extract: NADPH
[2] = system: Agrobacterium tumifaciens PD31; assay: Induction of nitroglycerin-degrading activity in Agrobacterium tumifaciens PD31; details: 24 h in Luria Broth, 0.5 mM NEM, 0.25 mM MD, 1 mM DMFU, 4 mM DEME, DEMO, DMMO, 0.5 mM GTN, PETN, TNT; for nitroglycerin-degrading activity of cell-free extract: NADH
[3] = system: Klebsiella pneumoniae BB6; assay: Induction of nitroglycerin-degrading activity in Klebsiella pneumoniae BB6; details: 24 h in Luria Broth, 0.5 mM NEM, 0.5 mM MD, 1 mM DMFU, 4 mM DEME, DEMO, DMMO, 0.5 mM GTN, PETN, TNT; for nitroglycerin-degrading activity of cell-free extract: NADPH

Row | SMILES | Fold-Induction relative to the control [1] [fold] | nitroglycerin-degrading activity of cell-free extract [1] [U/g] | Fold-Induction relative to the control [2] [fold] | nitroglycerin-degrading activity of cell-free extract [2] [U/g] | Fold-Induction relative to the control [3] [fold] | nitroglycerin-degrading activity of cell-free extract [3] [U/g]
1 | CC(C)(C)c1cc(O)ccc1O | 2.5 | 0.25 | – | – | – | –
2 | CC1=CC(=O)c2ccccc2C1=O | – | – | 1.3 | 24 | 8.8 | 25
3 | COC(=O)/C=C\C(=O)OC | 25 | 2.5 | – | – | – | –
4 | COC(=O)/C=C/C(=O)OC | 11 | 1.1 | 1.3 | 24 | 106 | 303
5 | CCOC(=O)CC(=O)OCC | – | – | 1.2 | 22 | 5.1 | 15
6 | CCOC(=O)/C=C\C(=O)OCC | 27 | 2.7 | – | 29 | 58 | 165
7 | CC(=O)/C=C/c1ccccc1 | 1.0 | <0.10 | – | – | – | –
8 | CCN1C(=O)C=CC1=O | – | – | – | 27 | 1.6 | 4.5
9 | COC(=O)CC(=O)OC | – | – | 1.1 | 21 | 1.6 | 4.6
10 | O=[N+]([O-])OCC(CO[N+](=O)[O-])O[N+](=O)[O-] | – | <0.10 | – | 19 | 1.0 | <0.10
